Each structure is given as a SMILES string.

Data on one molecule can be found in publication PMC10899660, “Global fungal-host interactome mapping identifies host targets of candidalysin” (Nature Communications, 2024).

This test deals with CAK complex. The experiment in a line: CAK kinase activity in vitro (ADP-Glo kinase assay). It is filed as biochemical. Particulars: increasing concentrations of candidalysin. From the text:
We postulated that the binding of candidalysin to CCNH might be critical for activation of CAK activity to regulate DNA damage repair. […] The importance of this finding is that candidalysin not only induces DNA damage, it may have evolved to specifically recognize CCNH and activate CAK complex, leading to suppression of DDR.
On the technique in general: ADP-Glo turns the ADP formed in a reaction into a luminescent signal.

Regarding `CC[C@H](C)[C@H](NC(=O)CNC(=O)[C@H](CCSC)NC(=O)[C@@H](NC(=O)[C@@H](NC(=O)CNC(=O)[C@@H](NC(=O)[C@@H](NC(=O)[C@@H](N)CO)[C@@H](C)CC)[C@@H](C)CC)[C@@H](C)CC)[C@@H](C)CC)C(=O)N[C@@H](CC(C)C)C(=O)NCC(=O)N[C@@H](CC(N)=O)C(=O)N[C@H](C(=O)N1CCC[C@H]1C(=O)N[C@@H](CCC(N)=O)C(=O)N[C@H](C(=O)N[C@H](C(=O)N[C@@H](CCC(N)=O)C(=O)N[C@H](C(=O)N[C@H](C(=O)N[C@@H](CCSC)C(=O)N[C@@H](CO)C(=O)N[C@H](C(=O)N[C@H](C(=O)N[C@@H](CCCCN)C(=O)N[C@@H](C)C(=O)N[C@@H](Cc1ccccc1)C(=O)N[C@@H](CCCCN)C(=O)NCC(=O)N[C@@H](CC(N)=O)C(=O)N[C@@H](CCCCN)C(=O)O)C(C)C)[C@@H](C)CC)[C@@H](C)CC)[C@@H](C)CC)[C@@H](C)CC)C(C)C)[C@@H](C)CC` [Ece1-III], the CAK kinase activity result is listed as “activated gradually with increasing concentrations”.
